Source: ChEMBL document CHEMBL1240375, “Identification of a plasmid-borne resistance gene cluster comprising the resistance genes erm(T), dfrK, and tet(L) in a porcine methicillin-resistant Staphylococcus aureus ST398 strain” (2010)

Tested on: Staphylococcus aureus
Conditions: 25

Sequence: GENTAMICIN
- MIC: 0.5 µg/mL
